Data: US11390664B2, “Antibodies that potently neutralize hepatitis B virus and uses thereof” (priority 2015, dated 2022)

How the values were obtained:
HBV = assay: HBV/HDV co-infected humanized uPA/SCID mice: HBV DNA viremia; settings: 1 mg/kg i.p. twice per week for 6 weeks
HDV = assay: HBV/HDV co-infected humanized uPA/SCID mice: HDV viremia; assay type: in vivo; settings: 3 weeks and 6 weeks after treatment (weeks 8 and 11); 1 mg/kg i.p. twice per week

## HBC34: IgG1-type fully human monoclonal antibody against HBsAg antigenic loop; VH SEQ ID NO: 41, VL SEQ ID NO: 42
HBV
  HBV viral DNA titers reduction: 2 logs
HDV
  HDV viral spread: efficiently blocked
